Compound potency records, mixed from different reports. Data source: NIAID ChemDB in PubChem.

Shared fields: whole-cell or culture tests

An empty or dashed field is not shown. Neighbouring rows are from separate reports. Zones are inhibition diameters on agar. MIC50, MIC90 and the like: level of inhibition, or share of isolates inhibited. Two numbers with a dash give a range or band. Inhibition is in % at the dose shown (toxicity tests: loss of growth or viability).

structure	conditions	measure	agent	strain	tested at	method	value
CCc1cn([C@H]2C[C@H](I)[C@@H](CO)O2)c(=O)[nH]c1=O		inhibition	Mycobacterium bovis	BCG	100 µg/mL	resazurin	0%
CC(=O)NC[C@H]1CN(c2ccc3c(c2)SCc2nccn2-3)C(=O)O1		MIC	Mycoplasma pneumoniae				4 µg/mL
CCCCCCCCCCCCO/N=C1\[C@H](C)CC(C)(O)[C@H](O[C@@H]2O[C@H](C)C[C@H](N(C)C)[C@H]2O)[C@@H](C)[C@H](OC2C[C@@](C)(OC)[C@@H](O)[C@H](C)O2)[C@@H](C)C(=O)O[C@H](CC)[C@@](C)(O)[C@H](O)[C@H]1C		MIC	Mycobacterium avium complex	20039 (clarithromycin-susceptible)			25 µg/mL
CCCCc1ccc(NC(=O)NNC(=O)c2ccncc2)cc1	14 d	MIC100	Mycobacterium kansasii	My 235/80		broth dilution	125 µM
C=C1C(=O)[C@@]23C(=O)O[C@H]4CCC(C)(C)[C@H]5[C@H](O)OC[C@@]45[C@@H]2CC[C@@H]1[C@H]3OC(=O)c1cc2ccccc2[nH]1		MIC	Mycobacterium phlei	ATCC 355		resazurin	1 µg/mL
Cc1c(OCC(F)(F)F)ccnc1CSc1nc2ccccc2[nH]1		MIC90	Mycobacterium vaccae	ATCC 15483		resazurin	>100 µM
CCCC(=O)O[C@H]1[C@H](C)[C@@H](O[C@@H]2O[C@H](C)C[C@H](N(C)C)[C@H]2O)C(C)(O)C[C@@H](C)/C(=N\OCCCOc2ccccc2)[C@H](C)[C@@H](O)[C@](C)(O)[C@@H](CC)OC(=O)[C@@H]1C		MIC	Mycobacterium avium complex	20092 (clarithromycin-resistant)			12.5 µg/mL
CC(C)N(C)CCN(C)C(C)C		inhibition	Mycobacterium smegmatis	ATCC 607	250 µg/mL		0%
CO[C@H]1/C=C/O[C@@]2(C)Oc3c(C)c(O)c4c(=O)c(c5oc6cc(N7CCN(CC(C)C)CC7)cc(=O)c6nc5c4c3=C2O)NC(=O)/C(C)=C\C=C\[C@H](C)[C@H](O)[C@@H](C)[C@@H](O)[C@@H](C)[C@H](OC(C)=O)[C@@H]1C		MIC	Mycobacterium avium complex	N-265 (HIV-)			0.0313 µg/mL
CC[C@H]1OC(=O)[C@H](C)[C@@H](O[C@H]2C[C@@](C)(OC)[C@@H](OC(C)=O)[C@H](C)O2)[C@H](C)[C@@H](O[C@@H]2O[C@H](C)C[C@H](N(C)C)[C@H]2OC(=O)NNCc2ccc([N+](=O)[O-])cc2)C(C)(O)C[C@@H](C)/C(=N\OCCCC2CCCCC2)[C@H](C)[C@@H](O)[C@]1(C)O		MIC	Mycobacterium avium complex	20092 (clarithromycin-resistant)			3.13 µg/mL
C=C/C(C)=C/[C@@]1(C)SC(=O)C(C)=C1O		MIC	Mycobacterium bovis	BCG (PMV261::KASAB)			150–200 µg/mL
CC[C@H]1OC(=O)[C@H](C)[C@@H](O[C@H]2C[C@@](C)(OC)[C@@H](OC(C)=O)[C@H](C)O2)[C@H](C)[C@@H](O[C@@H]2O[C@H](C)C[C@H](N(C)C)[C@H]2O)C(C)(O)C[C@@H](C)/C(=N\OCCN(C)c2ccccc2)[C@H](C)[C@@H](O)[C@]1(C)O		MIC	Mycobacterium avium complex	20092 (clarithromycin-resistant)			25 µg/mL
CC(=O)NC[C@H]1CN(c2ccc3c(c2)OCc2nncn2-3)C(=O)O1		MIC	Mycoplasma pneumoniae				32 µg/mL
O=C(NNC(=O)c1ccncc1)Nc1ccc(Br)cc1F	14 d	MIC100	Mycobacterium kansasii	My 6509/96		broth dilution	>125 µM
COc1ncccc1Nc1cc2nc3ccccc3n(-c3ccc(OC(F)(F)F)cc3)c-2cc1=NC1CCC(OC)CC1		MIC90	Mycobacterium scrofulaceum			fluorescence	1.49 µg/mL
O=C(NNC(=O)c1ccncc1)Nc1ccc(Br)cc1Br	14 d	MIC100	Mycobacterium kansasii	My 235/80		broth dilution	>125 µM
C=C1C(=O)[C@@]23C(=O)O[C@H]4CCC(C)(C)[C@H]5C(=O)OC[C@@]45[C@@H]2CC[C@@H]1[C@H]3OC(=O)c1cc2ccccc2[nH]1		MIC	Mycobacterium phlei	ATCC 355		resazurin	0.5 µg/mL
CCCCCCCc1ccc(NC(=O)NNC(=O)c2ccncc2)cc1	21 d	MIC100	Mycobacterium kansasii	My 6509/96		broth dilution	125 µM
CCCNCCNC(C)C		inhibition	Mycobacterium smegmatis	ATCC 607	125 µg/mL		100%
CN[C@@H]1[C@H](O[C@H]2[C@H](O[C@H]3[C@H](O)[C@@H](O)[C@H](N=C(N)N)[C@@H](O)[C@@H]3N=C(N)N)O[C@@H](C)[C@]2(O)C=O)O[C@@H](CO)[C@H](O)[C@H]1O		MIC50	Mycobacterium fortuitum	31 isolates			>64 µg/mL
O=C(NNC(=O)c1ccncc1)Nc1ccc(F)cc1Br	7 d	MIC100	Mycobacterium kansasii	My 6509/96		broth dilution	>125 µM
COc1ccc(/C=N/n2c(C)nn(Cc3cn(CCCn4cc(Cn5nc(C)n(/N=C/c6ccc(OC)cc6)c5=O)nn4)nn3)c2=O)cc1		zone	Mycobacterium luteus		20 mg/mL	agar diffusion	0.6 mm
COc1ccccc1/C=C/C1=NN(C(=N)N)C(c2ccccc2OC)C1		MIC	Mycobacterium chelonae			resazurin	1.78 µM
CCC(=O)NC[C@H]1CN(c2ccc3c(c2)OCc2nccn2-3)C(=O)O1		MIC	Mycoplasma pneumoniae				4 µg/mL
CN[C@@H]1[C@H](O[C@H]2[C@H](O[C@H]3[C@H](O)[C@@H](O)[C@H](N=C(N)N)[C@@H](O)[C@@H]3N=C(N)N)O[C@@H](C)[C@]2(O)C=O)O[C@@H](CO)[C@H](O)[C@H]1O		zone	Mycobacterium luteus		10 µg/mL	agar diffusion	1.456 mm
NNC(=O)c1ccncc1		MIC	Mycobacterium bovis	BCG (PMV261::KASB)			0.05 µg/mL
CCc1cc(C(N)=S)ccn1		MIC	Mycobacterium smegmatis	MC^2 845			>80 µg/mL
CC[C@H]1OC(=O)[C@H](C)[C@@H](O[C@H]2C[C@@](C)(OC)[C@@H](OC(C)=O)[C@H](C)O2)[C@H](C)[C@@H](O[C@@H]2O[C@H](C)C[C@H](N(C)C)[C@H]2OC(=O)NN2CCCCC2)C(C)(O)C[C@@H](C)/C(=N\OCCCC2CCCCC2)[C@H](C)[C@@H](O)[C@]1(C)O		MIC	Mycobacterium avium intracellulare	20066 (clarithromycin-susceptible)			0.78 µg/mL
CO[C@@]1(NC(=O)Cc2ccccc2)C(=O)N2C(C(=O)[O-])=C(CSc3nnc(C)s3)CSC21		MIC	Mycobacterium fortuitum	1059			>100 µg/mL
C=C1C(=O)[C@@]23C(=O)O[C@H]4CCC(C)(C)[C@H]5C(=O)OC[C@@]45[C@@H]2CC[C@@H]1[C@H]3OC(=O)c1cnccn1		MIC	Mycobacterium phlei	ATCC 355		resazurin	2 µg/mL
Cc1ccccc1/C=C/C1=NN(C(=N)N)C(c2ccccc2C)C1		MIC	Mycobacterium chelonae			resazurin	3.92 µM
COc1ccc(CCn2c(C)nn(Cc3cn(CCCCCn4cc(Cn5nc(C)n(CCc6ccc(OC)cc6)c5=O)nn4)nn3)c2=O)cc1		zone	Mycobacterium luteus		20 mg/mL	agar diffusion	0.9 mm
CCCNNC(=O)O[C@H]1[C@H](O[C@@H]2[C@@H](C)[C@H](O[C@H]3C[C@@](C)(OC)[C@@H](OC(C)=O)[C@H](C)O3)[C@@H](C)C(=O)O[C@H](CC)[C@@](C)(O)[C@H](O)[C@@H](C)/C(=N/OCCCC3CCCCC3)[C@H](C)CC2(C)O)O[C@H](C)C[C@@H]1N(C)C		MIC	Mycobacterium avium intracellulare	20066 (clarithromycin-susceptible)			0.78 µg/mL
CCCCNCCNCCCC		inhibition	Mycobacterium smegmatis	ATCC 607	250 µg/mL		0%
CO[C@H]1/C=C/O[C@@]2(C)Oc3c(C)c(O)c4c(O)c(c5c(c4c3C2=O)NC2(CCN(CC(C)C)CC2)N=5)=NC(=O)/C(C)=C\C=C\[C@H](C)[C@H](O)[C@@H](C)[C@@H](O)[C@@H](C)[C@H](OC(C)=O)[C@@H]1C		MIC	Mycobacterium avium intracellulare	N-486 (HIV-)			0.4 µg/mL
O=c1[nH]c(=O)n([C@H]2C[C@H](F)[C@@H](CO)O2)cc1C(F)(F)F		inhibition	Mycobacterium bovis	BCG	100 µg/mL	resazurin	0%
CC(=O)NC[C@H]1CN(c2ccc3c(c2)OCC2CCCN32)C(=O)O1		MIC	Mycoplasma pneumoniae				>32 µg/mL
CCCCCCNNC(=O)O[C@H]1[C@H](O[C@@H]2[C@@H](C)[C@H](O[C@H]3C[C@@](C)(OC)[C@@H](OC(C)=O)[C@H](C)O3)[C@@H](C)C(=O)O[C@H](CC)[C@@](C)(O)[C@H](O)[C@@H](C)/C(=N/OCCCC3CCCCC3)[C@H](C)CC2(C)O)O[C@H](C)C[C@@H]1N(C)C		MIC	Mycobacterium avium complex	20096 (clarithromycin-resistant)			1.56 µg/mL
CC(C)CCOc1ccc(NC(=S)Nc2ccc(OCCC(C)C)cc2)cc1		MIC	Mycobacterium bovis	BCG (PMV261::KASAB)			0.2 µg/mL
CC(=O)NC[C@H]1CN(c2ccc3c(c2)OC(C)(C)c2nccn2-3)C(=O)O1		MIC	Mycoplasma pneumoniae				>32 µg/mL
COC(=O)/C=C/C(=O)c1ccc(C(C)(C)C)cc1		MIC	Mycobacterium intracellulare				4 µg/mL
CCc1cc(C(N)=S)ccn1		inhibition	Mycobacterium fortuitum	198 strains	5 µg/mL	agar	<1%
C[C@@H](O)[C@H]1C(=O)N2C(C(=O)O)=C(SCCN=CN)C[C@H]12		MIC	Mycobacterium fortuitum	1045			25 µg/mL
N=C(N)N1N=C(/C=C/c2ccc(Cl)cc2)CC1c1ccc(Cl)cc1		MIC	Mycobacterium chelonae			resazurin	1.74 µM
CCC(=O)O[C@H]1[C@H](C)OC(O[C@H]2[C@H](C)[C@@H](O[C@@H]3O[C@H](C)C[C@H](N(C)C)[C@H]3O)C(C)(O)C[C@@H](C)/C(=N\OCCCOc3ccccc3)[C@H](C)[C@@H](O)[C@](C)(O)[C@@H](CC)OC(=O)[C@@H]2C)C[C@@]1(C)OC		MIC	Mycobacterium avium complex	20039 (clarithromycin-susceptible)			1.56 µg/mL
CCCCCCCCCCCCc1ccc(NC(=O)C2=CCN(C)[C@@H]([C@H](O[C@@H]3O[C@H](CN)[C@@H](O)[C@H]3O)[C@H]3O[C@@H](n4ccc(=O)[nH]c4=O)[C@H](O)[C@@H]3O)C(=O)N2C)cc1		MIC	Mycobacterium avium paratuberculosis	ATCC 43015			0.39 µg/mL
CO[C@@]1(NC(=O)CCCC(N)C(=O)O)C(=O)N2C(C(=O)O)=C(COC(C)=O)CSC21		MIC	Mycobacterium fortuitum	4-May			>100 µg/mL
Oc1ccc(CCN=C=S)cc1		MIC	Mycobacterium scrofulaceum			visual reading	32 µg/mL
CN[C@@H]1[C@H](O[C@H]2[C@H](O[C@H]3[C@H](O)[C@@H](O)[C@H](N=C(N)N)[C@@H](O)[C@@H]3N=C(N)N)O[C@@H](C)[C@]2(O)C=O)O[C@@H](CO)[C@H](O)[C@H]1O		MIC	Mycobacterium avium complex	N-289 (HIV-)			16 µg/mL
C/C=C/C/C=C/CCC(=O)[C@H]1O[C@H]1C(N)=O		MIC	Mycobacterium bovis	BCG (PMV261)			0.2–0.4 µg/mL
COc1ccc(CCn2c(C)nn(Cc3cn(CCCCCCn4cc(Cn5nc(C)n(CCc6ccc(OC)cc6)c5=O)nn4)nn3)c2=O)cc1		zone	Mycobacterium luteus		20 mg/mL	agar diffusion	0.9 mm
CCCCCc1ccc(NC(=O)NNC(=O)c2ccncc2)cc1	7 d	MIC100	Mycobacterium kansasii	My 6509/96		broth dilution	32 µM
NC[C@@H]1O[C@H](O[C@H]2[C@@H](O)[C@H](O[C@@H]3[C@@H](O)[C@H](N)C[C@H](N)[C@H]3O[C@H]3O[C@H](CN)[C@@H](O)[C@H](O)[C@H]3N)O[C@@H]2CO)[C@H](N)[C@@H](O)[C@@H]1O		MBC90	Mycobacterium fortuitum	31 isolates			>64 µg/mL
CC(C)N=C(N)/N=C(\N)NOCCCOc1cc(Cl)c(Cl)cc1Cl		MIC	Mycobacterium avium complex	9141			32 µg/mL
NCC[C@H](O)C(=O)N[C@@H]1C[C@H](N)[C@@H](O[C@H]2O[C@H](CN)[C@@H](O)[C@H](O)[C@H]2O)[C@H](O)[C@H]1O[C@H]1O[C@H](CO)[C@@H](O)[C@H](N)[C@H]1O		MBC90	Mycobacterium fortuitum	31 isolates			64 µg/mL
Cc1nn(Cc2cn(CCCCCCn3cc(Cn4nc(C)n(/N=C/c5cccs5)c4=O)nn3)nn2)c(=O)n1/N=C/c1cccs1		zone	Mycobacterium luteus		20 mg/mL	agar diffusion	0.6 mm
CC(=O)NC[C@H]1CN(c2ccc3c(c2)CCc2nccn2-3)C(=O)O1		MIC	Mycoplasma pneumoniae				4 µg/mL
CCCCCCC(=O)O[C@H]1[C@H](C)OC(O[C@H]2[C@H](C)[C@@H](O[C@@H]3O[C@H](C)C[C@H](N(C)C)[C@H]3O)C(C)(O)C[C@@H](C)/C(=N\OCCCOc3ccccc3)[C@H](C)[C@@H](O)[C@](C)(O)[C@@H](CC)OC(=O)[C@@H]2C)C[C@@]1(C)OC		MIC	Mycobacterium avium intracellulare	20066 (clarithromycin-susceptible)			0.39 µg/mL
C=C1C(=O)[C@@]23C(=O)O[C@H]4CCC(C)(C)[C@H]5[C@H](O)OC[C@@]45[C@@H]2CC[C@@H]1[C@H]3OC(=O)c1cnccn1		MIC	Mycobacterium phlei	ATCC 355		resazurin	4 µg/mL
CO[C@@]1(NC(=O)CSCC#N)C(=O)N2C(C(=O)O)=C(CSc3nnnn3C)CS[C@@H]21		MIC	Mycobacterium fortuitum	1261			6.25 µg/mL
CO[C@H]1/C=C/O[C@@]2(C)Oc3c(C)c(O)c4c(O)c(c5c(c4c3C2=O)NC2(CCN(CC(C)C)CC2)N=5)=NC(=O)/C(C)=C\C=C\[C@H](C)[C@H](O)[C@@H](C)[C@@H](O)[C@@H](C)[C@H](OC(C)=O)[C@@H]1C		MIC	Mycobacterium avium intracellulare	119			0.125 µg/mL
CC(C)N[C@@H]1CCCC[C@H]1NC(C)C		inhibition	Mycobacterium smegmatis	ATCC 607	250 µg/mL		0%